Results of unrelated studies side by side (data: NIAID ChemDB).

Shared fields: growth or infection tests; agent: Mycobacterium avium intracellulare; endpoint: MIC

Rows are shuffled and stem from different studies. Two numbers with a dash give a range or band. An empty or dashed field is not shown.

SMILES	strain	result
CN(C)C/C=C(\c1ccc(Cl)cc1)c1ccc(-c2ccc(Br)cc2)cc1	-	18.7 µg/mL
COc1cc2ccnc3c2c(c1OC(=O)c1ccc(F)c(F)c1)N(C)C=C3	-	20 µg/mL
CO[C@H]1/C=C/O[C@@]2(C)Oc3c(C)c(O)c4c(O)c(c5c(c4c3C2=O)NC2(CCN(CC(C)C)CC2)N=5)=NC(=O)/C(C)=C\C=C\[C@H](C)[C@H](O)[C@@H](C)[C@@H](O)[C@@H](C)[C@H](OC(C)=O)[C@@H]1C	92	0.5 µg/mL
CC(C)Sc1ncnc2ccccc12	D 38/92	63 µM
COc1cc2ccnc3c2c(c1OC(=O)c1ccc(CCl)cc1)N(C)C=C3	-	10 µg/mL
CCCCSc1ncnc2ccccc12	D 39/93	32 µM
CC[C@H]1OC(=O)[C@H](C)[C@@H](O[C@H]2C[C@@](C)(OC)[C@@H](OC(C)=O)[C@H](C)O2)[C@H](C)[C@@H](O[C@@H]2O[C@H](C)C[C@H](N(C)C)[C@H]2O)C(C)(O)C[C@@H](C)/C(=N\OCCCOc2ccccc2)[C@H](C)[C@@H](O)[C@]1(C)O	20066 (clarithromycin-susceptible)	0.78 µg/mL
CC(C)CSc1ncnc2ccccc12	D 39/93	125 µM
C[C@@H]1CN(c2c(F)c(N)c3c(=O)c(C(=O)O)cn(C4CC4)c3c2F)C[C@H](C)N1	3 isolates	0.1–0.3 µg/mL
CN(C)CC=C(c1ccccc1)c1ccc(-c2ccc(Br)cc2)cc1	-	40 µg/mL
CC[C@H]1OC(=O)[C@H](C)[C@@H](OC2C[C@@](C)(OC)[C@@H](O)[C@H](C)O2)[C@H](C)[C@@H](O[C@@H]2O[C@H](C)C[C@H](N(C)C)[C@H]2O)C(C)(O)C[C@@H](C)/C(=N\OCCc2ccccc2)[C@H](C)[C@@H](O)[C@]1(C)O	20066 (clarithromycin-susceptible)	1.56 µg/mL
CCCCc1ccc(C(=O)Oc2c(OC)cc3ccnc4c3c2N(C)C=C4)cc1	-	1.3 µg/mL
CC1COc2c(N3CCN(C)CC3)c(F)cc3c(=O)c(C(=O)O)cn1c23	N-260	50 µg/mL
CCSc1ncnc2ccccc12	D 39/93	63 µM
COc1cc2ccnc3c2c(c1OC(=O)c1ccc(F)cc1)N(C)C=C3	-	10 µg/mL
CO[C@H]1/C=C/O[C@@]2(C)Oc3c(C)c(O)c4c(=O)c(c5oc6cc(N7CCN(CC(C)C)CC7)cc(=O)c6nc5c4c3=C2O)NC(=O)/C(C)=C\C=C\[C@H](C)[C@H](O)[C@@H](C)[C@@H](O)[C@@H](C)[C@H](OC(C)=O)[C@@H]1C	N-260	0.06 µg/mL
CC1COc2c(N3CCN(C)CC3)c(F)cc3c(=O)c(C(=O)O)cn1c23	38 strains	≥5 µg/mL
c1ccc(CCSc2ncnc3ccccc23)cc1	D 39/93	32 µM
CN(C)C/C=C(\c1ccc(I)cc1)c1ccc(-c2ccc(Br)cc2)cc1	-	19 µg/mL
CC(=O)Oc1ccccc1C(=O)Nc1ncc([N+](=O)[O-])s1	-	2 µg/mL
CC[C@H]1OC(=O)[C@H](C)[C@@H](O[C@H]2C[C@@](C)(OC)[C@@H](OC(C)=O)[C@H](C)O2)[C@H](C)[C@@H](O[C@@H]2O[C@H](C)C[C@H](N(C)C)[C@H]2OC(=O)NNCc2ccncc2)C(C)(O)C[C@@H](C)/C(=N\OCCCC2CCCCC2)[C@H](C)[C@@H](O)[C@]1(C)O	20066 (clarithromycin-susceptible)	1.56 µg/mL
COc1cc2ccnc3c2c(c1OC(=O)c1ccc(C(C)(C)C)cc1)N(C)C=C3	-	1.3 µg/mL
Cc1c(C)c(C)[c-](C)c1C.N[C@@H](Cc1ccccc1)C(=O)[O-].[Cl][Ir+2]	1406T	61 µg/mL
CN(C)C/C=C(/c1ccc(Br)cc1)c1ccc(-c2ccc(Br)cc2)cc1	-	68 µg/mL
COc1cc2ccnc3c2c(c1OC(=O)c1ccccc1C)N(C)C=C3	-	10 µg/mL
CC[C@H]1OC(=O)[C@H](C)[C@@H](OC(=O)CCCCCc2ccccc2)[C@H](C)[C@@H](O[C@@H]2O[C@H](C)C[C@H](N(C)C)[C@H]2O)C(C)(O)C[C@@H](C)/C(=N\OCCCOc2ccccc2)[C@H](C)[C@@H](O)[C@]1(C)O	20066 (clarithromycin-susceptible)	6.25 µg/mL
NC[C@@H]1O[C@H](O[C@H]2[C@@H](O)[C@H](O[C@@H]3[C@@H](O)[C@H](N)C[C@H](N)[C@H]3O[C@H]3O[C@H](CO)[C@@H](O)C[C@H]3N)O[C@@H]2CO)[C@H](N)[C@@H](O)[C@@H]1O[C@H]1O[C@H](CO)[C@@H](O)[C@H](O)[C@@H]1O	10 strains	200 µg/mL
CC[C@H]1OC(=O)[C@H](C)[C@@H](O[C@H]2C[C@@](C)(OC)[C@@H](OC(C)=O)[C@H](C)O2)[C@H](C)[C@@H](O[C@@H]2O[C@H](C)C[C@H](N(C)C)[C@H]2O)C(C)(O)C[C@@H](C)/C(=N\OCCCC2CCCCC2)[C@H](C)[C@@H](O)[C@]1(C)O	20066 (clarithromycin-susceptible)	1.56 µg/mL
CN(C)C/C=C(/c1ccc(-c2ccc(Br)cc2)cc1)c1ccc(S(C)(=O)=O)cc1	-	68 µg/mL
CC[C@H]1OC(=O)[C@H](C)[C@@H](O[C@H]2C[C@@](C)(OC)[C@@H](OC(C)=O)[C@H](C)O2)[C@H](C)[C@@H](O[C@@H]2O[C@H](C)C[C@H](N(C)C)[C@H]2O)C(C)(O)C[C@@H](C)/C(=N\OCCc2ccccc2)[C@H](C)[C@@H](O)[C@]1(C)O	20066 (clarithromycin-susceptible)	1.56 µg/mL
CN(C)C/C=C(/c1ccccc1)c1ccc(-c2ccc(Br)cc2)cc1	-	40 µg/mL
COC(=O)C1[C@@H](OC(=O)CC(CCCCCCCCCCC(C)C)OC(=O)CC(C)CC(=O)OC2OC(C)C(OC)C(OC)C2OC)CN(C)C([C@@H](OC2O[C@H](CN)[C@@H](O)[C@H]2O)C2OC(n3ccc(=O)[nH]c3=O)[C@H](O)[C@@H]2O)C(=O)N1C	E-1 NIHJ-1618	0.78 µg/mL
CC[C@H]1OC(=O)[C@H](C)[C@@H](O[C@H]2C[C@@](C)(OC)[C@@H](OC(C)=O)[C@H](C)O2)[C@H](C)[C@@H](O[C@@H]2O[C@H](C)C[C@H](N(C)C)[C@H]2O)C(C)(O)C[C@@H](C)/C(=N\OCCOc2ccccc2)[C@H](C)[C@@H](O)[C@]1(C)O	20066 (clarithromycin-susceptible)	1.56 µg/mL

For reference, 5 entries again:

| SMILES | strain | result |
|---|---|---|
| CC[C@H]1OC(=O)[C@H](C)[C@@H](O[C@H]2C[C@@](C)(OC)[C@@H](OC(C)=O)[C@H](C)O2)[C@H](C)[C@@H](O[C@@H]2O[C@H](C)C[C@H](N(C)C)[C@H]2O)C(C)(O)C[C@@H](C)/C(=N\OCCCC2CCCCC2)[C@H](C)[C@@H](O)[C@]1(C)O | 20066 (clarithromycin-susceptible) | 1.56 µg/mL |
| CC[C@H]1OC(=O)[C@H](C)[C@@H](O[C@H]2C[C@@](C)(OC)[C@@H](OC(C)=O)[C@H](C)O2)[C@H](C)[C@@H](O[C@@H]2O[C@H](C)C[C@H](N(C)C)[C@H]2O)C(C)(O)C[C@@H](C)/C(=N\OCCc2ccccc2)[C@H](C)[C@@H](O)[C@]1(C)O | 20066 (clarithromycin-susceptible) | 1.56 µg/mL |
| CN(C)C/C=C(\c1ccc(I)cc1)c1ccc(-c2ccc(Br)cc2)cc1 | - | 19 µg/mL |
| COc1cc2ccnc3c2c(c1OC(=O)c1ccc(C(C)(C)C)cc1)N(C)C=C3 | - | 1.3 µg/mL |
| COc1cc2ccnc3c2c(c1OC(=O)c1ccc(F)cc1)N(C)C=C3 | - | 10 µg/mL |